Measurements from US20200237717A1, “Treatment of Staphylococcal and Enterococcal Infections Using Substituted Nitrostyrene Compounds” (Opal Biosciences Limited, priority 2017, published 2020).
In brackets after ≈: the same amount, converted by molar mass.

Tests used:
Experiment in all cases: Vancomycin MIC testing of Sa375 mutant
Settings in all cases: Staphylococcus aureus, read-out: Vancomycin MIC
Sa375-L37F = tested on: Sa375-L37F
Sa375-G560S = tested on: Sa375-G560S
Sa375-G30W = tested on: Sa375-G30W

SMILES: CN[C@H](CC(C)C)C(=O)N[C@H]1C(=O)N[C@@H](CC(N)=O)C(=O)N[C@H]2C(=O)N[C@H]3C(=O)N[C@H](C(=O)N[C@H](C(=O)O)c4cc(O)cc(O)c4-c4cc3ccc4O)[C@H](O)c3ccc(c(Cl)c3)Oc3cc2cc(c3O[C@@H]2O[C@H](CO)[C@@H](O)[C@H](O)[C@H]2O[C@H]2C[C@](C)(N)[C@H](O)[C@H](C)O2)Oc2ccc(cc2Cl)[C@H]1O [Vancomycin]
- MIC (Sa375-L37F): 0.5 µg/mL (≈ 0.345 µM)
- MIC (Sa375-G560S): 0.5 µg/mL (≈ 0.345 µM)
- MIC (Sa375-G30W): 1 µg/mL (≈ 0.69 µM)
